From the supplement of paper PMC9931576 come the findings set out here.

Human monoclonal antibodies against the spike receptor-binding domain (heavy:light variable regions). IC50 against pseudoviruses bearing the spike of naturally observed variants; lower = stronger; >10 µg/ml means not reached at the top dose. No active / inactive call. The stated detection limit is 0.0005 µg/ml; values near or below 0.001 µg/ml lie at the floor of the assay.

Common to all, as to assay: pseudovirus neutralization IC50; higher = weaker neutralization
For assay [1], the target named is SARS-CoV-2 Omicron BA.1 spike pseudovirus. Here is the method: (§1)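 Single-round VSV luciferase pseudovirus mixed with antibody dilutions for 1 h and put on Huh-7 cells for about a day; IC50 from the dose curve.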
For assay [2], the target named is SARS-CoV-2 Omicron BA.2 spike pseudovirus. Here is the method:
as §1

Assay [3] deals with SARS-CoV-2 Omicron BA.2.75 spike pseudovirus. Here is the method: as §1
Assay [4] concerns the target SARS-CoV-2 Omicron BA.5 spike pseudovirus. Here is the method: as §1
The target of assay [5] is SARS-CoV-2 Omicron BQ.1.1 spike pseudovirus. How it is done: as §1
The target of assay [6] is SARS-CoV-2 Omicron XBB spike pseudovirus. Here is the method: as §1
In assay [7] the target is SARS-CoV-2 early D614G spike pseudovirus. How it is done: as §1

B1: BD56-1306 (protein)
chain 1: EVQLVESGGGLVQPGRSLRLSCAASGFTFDDYAMQWVRLAPGKGLEWISGISWNSGGIAYADSVKGRFTVSRDNAKNSLYLQMNSLRPDDTALYYCAKIGSRSAFVRGYLDLWGRGTLVTVSS
chain 2: EIVMTQSPATLSVSPGERATLSCRASQSVSSNLAWYQQKPGQAPRLLIYGASTRATGIPARFSGSGSGTEFTLTISSLQSEDFAVYYCQHYNNWPPEITFGPGTKVDIK
Take B1: the “pseudovirus neutralization IC50” value was 1.49 µg/mL in assay [1]; 1.72 µg/mL in assay [2]; more than 10 µg/mL in assay [3]; 3.65 µg/mL in assay [4]; 5.61 µg/mL in assay [5]; more than 10 µg/mL in assay [6]. Also, the “pseudovirus neutralization IC50” value in assay [7] was more than 10 µg/mL.

B2: BD56-1307 (protein)
chain 1: EVQLVESGGGLVRPGGSLRLSCAASGFTFSSFSMNWVRQAPGKGLEWVSSISSGGGHIYYADSVKGRFTISRDNAKNSLYLQMNSLRAEDTAVFYCARDSEWGGDILTGFSHIFDYWGRGTLVTVSS
chain 2: DIQMTQSPSSLSASVGDRVTITCRASQIISSSLNWYQQKPGEAPKLLIYAFSLHSGVPSRFSGSGSGTDFTLTISSLQPEDFATYYCQQSYSTPPTFGGGTKVEIK
As for B2, the “pseudovirus neutralization IC50” value in assay [1], in assay [2], in assay [3], in assay [4], in assay [5] and in assay [6] was more than 10 µg/mL each time. The “pseudovirus neutralization IC50” value in assay [7] is more than 10 µg/mL.

B3: BD56-1323 (protein)
chain 1: QVQLVQSGAEVKKPGASVKLSCKASGYIFTNYYLHWVRQGPGQGPEWMGIINPSGGSRRYAQKFQGRVTMNRDTSTSTVYMELSSLRSEDTAVYYCAREVVVPAAGYMDVWGKGTTVTVSS
chain 2: SYVLTQPPSVTVAPGKTATLTCEGDNIGSKSVHWYQQKPGQAPVLVVYDDSDRPSGIPERFSGSNSGNTATLTISWVEAGDEADYFCQVWESTSDHFYVFGTGTKVTVL
Regarding B3, the “pseudovirus neutralization IC50” value in assay [1], in assay [2], in assay [3], in assay [4], in assay [5] and in assay [6] was more than 10 µg/mL each time. Also, the “pseudovirus neutralization IC50” value in assay [7] was 1.16 µg/mL.

B4: BD56-1304 (protein)
chain 1: QITLKESGPTLVKPTQTLTLTCTFSGFSLSTSGVGVGWIRQPPGKALEWLALIYWDDDRRYSPSLKSRLTITKDTSKNQVVLTMTNMDPVDTGTYYCAHNADNSASGSYRDENWFDPWGQGTLVTVSS
chain 2: SYELTQPPSVSVSPGQTARITCFGDAWPNQYAYWYQQKPGQAPVLVIYKDSERPSGIPERFSGSSSGTTVTLTISGVQAEDEADYFCQSADSSGVVFGGGTKLTVL
Consider B4, for which the “pseudovirus neutralization IC50” value in assay [1], in assay [2], in assay [3], in assay [4], in assay [5] and in assay [6] was more than 10 µg/mL throughout. Besides, the “pseudovirus neutralization IC50” value in assay [7] turned out to be 1.72 µg/mL.

B5: BD56-1331 (protein)
chain 1: EVQLLESGGGLVQPGGSLRLSCGASGFAFGSYAMSWVRQAPEKGLEWVSAINDSGDGKFYADSVKGRFTISRDNSKNTLYLQMNSLRAEDTAVYYCAKHEDFGDYVDYFDPWGQGTLITVSS
chain 2: DIQMTQSPSSLSASVGDRVTITCRASQSIGRYLSWYQQKAGKAPNLLIYGAASLQIGVPSRFSGSGSGTDFTLTITSLQPEDFATYYCQQSYGTPPWTFGQGTKVEIK
With B5, the “pseudovirus neutralization IC50” value was more than 10 µg/mL in assay [1]; 1.14 µg/mL in assay [2]; 1.96 µg/mL in assay [3]; 1.44 µg/mL in assay [4]; 1.96 µg/mL in assay [5]; 0.82 µg/mL in assay [6]. In addition, the “pseudovirus neutralization IC50” value in assay [7] was found to be 1.75 µg/mL.

B6: BD56-1326 (protein)
chain 1: EVQVVESGGGLVKPGGSLRLSCAASGFNFGSYNMNWLRQAPGKGLEWVSSIGTSSSYRYYADSIKGRFTISRDNAKNSLYLQMNSLRAEDTAVYYCARDSEWGGDILTGSSHIFDYWGQGTVVTVSS
chain 2: DIQMTQSPSSLSVSVGDRVTITCRASQTISSSLNWYHQKPGKAPKLLIYGAISLQSGVPSRFSGSGSGTDFTLTISSLQLEDFATYYCQQSYSSPPTFGGGTKVEIK
For the molecule B6, the “pseudovirus neutralization IC50” value in assay [1], in assay [2], in assay [3], in assay [4], in assay [5] and in assay [6] was more than 10 µg/mL in each case. The “pseudovirus neutralization IC50” value in assay [7] was more than 10 µg/mL.
